Results reported in US8221762B2, “Naturally processed measles virus peptides from class II HLA molecules” (priority 2004, dated 2012).

System: PBMC of subjects previously immunized with MMR-II vaccine
Experiment: T cell proliferation assay ([3H]-thymidine, 4 days, SI>2 positive), Example 3
Conditions: among 107 subjects who responded to measles

Row | Structure (SMILES) | sensitivity (measles responders who also responded to the peptide)
1 | CC[C@H](C)[C@H](NC(=O)[C@H](CCC(=O)O)NC(=O)CNC(=O)CNC(=O)[C@H](CCC(=O)O)NC(=O)[C@H](C)NC(=O)[C@@H](NC(=O)[C@H](CCC(=O)O)NC(=O)[C@@H](NC(=O)[C@H](CC(=O)O)NC(=O)[C@H](CO)NC(=O)[C@H](C)N)C(C)C)[C@@H](C)O)C(=O)N[C@@H](Cc1c[nH]cn1)C(=O)N[C@@H](CCC(=O)O)C(=O)N[C@@H](CC(C)C)C(=O)N[C@@H](CC(C)C)C(=O)N[C@@H](CCCNC(=N)N)C(=O)N[C@@H](CC(C)C)C(=O)N[C@@H](CCC(N)=O)C(=O)O [MV-P1] | 47%
2 | CC[C@H](C)[C@H](NC(=O)[C@H](CCC(=O)O)NC(=O)CNC(=O)CNC(=O)[C@H](CCC(=O)O)NC(=O)[C@H](C)NC(=O)[C@@H](NC(=O)[C@H](CCC(=O)O)NC(=O)[C@@H](NC(=O)[C@H](CC(=O)O)NC(=O)[C@H](CO)NC(=O)[C@H](C)N)C(C)C)[C@@H](C)O)C(=O)N[C@@H](Cc1c[nH]cn1)C(=O)N[C@@H](CCCCN)C(=O)N[C@@H](CC(C)C)C(=O)N[C@@H](CC(C)C)C(=O)N[C@@H](CCCNC(=N)N)C(=O)N[C@@H](CC(C)C)C(=O)N[C@@H](CCC(N)=O)C(=O)O [MV-P2] | 20%
